The results in this text go back to publication PMC12276032, “Intracellular and Extracellular Efficacy of Homoisoflavone Derivatives Against Mycobacterium Tuberculosis: Progress Toward Novel Antitubercular Agents” (Chemmedchem, 2025).

In series [1] the test system is Mycobacterium tuberculosis M299. The class given is cell-based. As to conditions: CC50 RAW 264.7 / MIC90 Mtb M299.
Series [2] concerns Mycobacterium tuberculosis H37Rv. Put plainly: Mtb H37Rv growth inhibition in extracellular bacterial culture (MTT). The class given is cell-based. The settings on record: CC50 RAW 264.7 / MIC90 Mtb H37Rv.

Each structure is given as a SMILES string. Values joined by “and” are separate entries in the source; they are usually repeats but may differ in a detail not shown here. Equal values may be shown once.

For the compound `COc1cc(/C=C2\COc3ccccc3C2=O)ccc1O` [Compound 17], the “SI [CC50/MIC90]” value in series [1] turned out to be 2.1; in series [2], 2.9. For `COc1ccc(/C=C2\COc3cc(O)ccc3C2=O)cc1OC` [Compound 34, (E)‐3‐(3,4‐Dimethoxybenzylidene)‐7‐Hydroxychroman‐4‐one], the “SI [CC50/MIC90]” value in series [1] is > 20 and 23.8; in series [2], above 3.4. `COc1ccc(/C=C2\COc3ccccc3C2=O)cc1` [Compound 10]: the “SI [CC50/MIC90]” value in series [1] is on record as above 3.4; in series [2], above 5.9. Consider `O=C1/C(=C/c2ccc([N+](=O)[O-])o2)COc2ccccc21` [Compound 22], for which the “SI [CC50/MIC90]” value in series [1] is > 20 and 27.7. Same read-out and setting: in the case of `O=C1/C(=C/c2ccc(O)c(Br)c2)COc2ccccc21` [Compound 19] it was 4.3.

`O=C1/C(=C/c2ccc(O)c(Cl)c2)COc2ccccc21` [Compound 18]: the “SI [CC50/MIC90]” value came out at 2.1 in series [1] and 3.1 in series [2].

As to `O=C1/C(=C/c2ccc([N+](=O)[O-])o2)COc2cc(N3CCCCC3)ccc21` [Compound 41], in series [1], the “SI [CC50/MIC90]” value is > 20 and 27.1. Turning to `O=C1/C(=C/c2ccc([N+](=O)[O-])s2)COc2cc(N3CCCCC3)ccc21` [Compound 42], the “SI [CC50/MIC90]” value in series [1] amounted to 5.5; in series [2] it was 1.9. The like results for `O=C1/C(=C/c2ccc3c(c2)OCO3)COc2ccccc21` [Compound 15] were, in that order, 3.5 and 2.7. Take `O=C1/C(=C/c2ccc(-n3ccnc3)cc2)COc2ccccc21` [Compound 21]: the “SI [CC50/MIC90]” value in series [1] was determined as 4.8; in series [2] it was 3.6.
